In article PMC6375650 (PLoS Biology, 2019):

Molecular target: H7 Sh2 HA (A/Shanghai/2/2013), ectodomain trimer, cleavage state not stated (Influenza A virus A/Shanghai/2/2013 …, UniProt R4NN21, strain, biotin (HAs biotinylated for biolayer interferometry))
Test: BLI
Details: both partners purified

B1: H7.5 Fab H-S74K (Fab, V domains shown)
VH: QVQLVQSGAEVKKPGASVKVSCKASGYTLTRYYFHWVRQAPGQGFEWMGIINPNGGGTSYAQKFGDRVIMTSDMKTSTIYMELSSLRSEDTAVYYCARDMPYYHDSGGPLFDLWGQGTLVTVSS
VL: EIVMTQSPSSLSASVGDRVTITCRPSQSISTFLNWYEQKPGKAPKLLIYDASSLQSGVPSRFSGSGSGTEFTLTISSLQPEDFATYYCQQSFSTPYTFGQGTRLEIK
binding result: binds

B2: H7.5 Fab H-M73R (Fab, V domains shown)
VH: QVQLVQSGAEVKKPGASVKVSCKASGYTLTRYYFHWVRQAPGQGFEWMGIINPNGGGTSYAQKFGDRVIMTSDRSTSTIYMELSSLRSEDTAVYYCARDMPYYHDSGGPLFDLWGQGTLVTVSS
VL: EIVMTQSPSSLSASVGDRVTITCRPSQSISTFLNWYEQKPGKAPKLLIYDASSLQSGVPSRFSGSGSGTEFTLTISSLQPEDFATYYCQQSFSTPYTFGQGTRLEIK
binding result: binds
